Results of unrelated studies side by side (data: NIAID ChemDB).

All rows: whole-cell or culture tests; agent: HIV-2; endpoint: EC50

ECn is the concentration giving n% inhibition of infection, replication or growth. a–b is a range or a potency band. Lines come from different laboratories, so protocols vary. Blank or dashed fields: not listed here.

smiles,strain or isolate,cells,method,result
CC(C)c1ccc(CS(=O)(=O)c2cccc[n+]2[O-])cc1,ROD,MAGI,β-galactosidase,12 µg/mL
C#CCNC(=O)CSc1cnc(Nc2ccc(C#N)cc2)nc1Oc1c(C)cc(C#N)cc1C,ROD,MT-4,MTT,>23.5 µM
CCO[C@]12CS(=O)(=O)O[C@@]13[C@@H](CN2)O[C@@H](Sc1ccccc1)[C@@H]3O[Si](C)(C)C(C)(C)C,ROD,CEM,-,>50 µM
CCCCCCCCCCCCCCCCCC(=O)Oc1ccc(OP(=O)(OCc2ccc(OC(=O)CCCC)cc2)OP(=O)(O)OP(=O)(O)OC[C@@H]2C=C[C@H](n3cc(C)c(=O)[nH]c3=O)O2)cc1,ROD,CEM,syncytia / visual reading,0.1 µM
Cc1cc(COC(CO)CO)c(F)cc1F,-,CEM,cytopathic effect / MTT,>500 µg/mL
O=c1[nH]cnc2c1ncn2[C@H]1C[C@@H](OCP(=O)(O)O)CO1,ROD,MT-4,MTT / absorbance,>395 µM
CC(C)CCC[C@@H](C)[C@H]1CC[C@H]2[C@@H]3CC[C@H]4C[C@@H](CCC=C(c5cc(Cl)c(O)c(C(=O)O)c5)c5cc(Cl)c(O)c(C(=O)O)c5)CC[C@]4(C)[C@H]3CC[C@]12C,ROD,MT-4,cytopathic effect / MTT,5.1 µM
C/C(=N\Nc1nc(-c2ccc([N+](=O)[O-])cc2)cs1)c1ccc2c(c1)OCO2,ROD,MT-4,MTT,>97.2 µM
Nc1ncnc2c1ncn2[C@@H]1C[C@@H](O)[C@@H](O)[C@H]1O,ROD,MT-4,-,>0.8 µM
COCCNC(=O)CSc1cnc(Nc2ccc(C#N)cc2)nc1Oc1c(C)cc(C#N)cc1C,ROD,MT-4,MTT,>27.2 µM
Cc1cc(S(N)(=O)=O)ccc1NC(=O)COc1ccc(Cl)cc1C(=O)c1cc(F)cc(F)c1,-,MT-4,cytopathic effect / propidium iodide,1–3 µM
N#Cc1ccc(-c2csc(N/N=C/c3cccnc3)n2)cc1,ROD,MT-4,MTT,>7.73 µM
CCCCCCCCCCCCCCC(=O)Oc1ccc(OP(=O)(OCc2ccc(OC(=O)CCCCCC)cc2)OP(=O)(O)OP(=O)(O)OC[C@@H]2C=C[C@H](n3cc(C)c(=O)[nH]c3=O)O2)cc1,ROD,CEM,syncytia / visual reading,0.29 µM
CN[C@@H]1[C@H](O[C@@H]2OC[C@@H](O)[C@H](O)[C@H]2O)[C@@H](O)[C@H](O[C@H]2c3cc(C)c(C(=O)N[C@H](C)C(=O)O)c(O)c3-c3c(cc4c(c3O)C(=O)c3cc(OC)cc(O)c3C4=O)[C@@H]2O)O[C@@H]1C,ROD,CD4+ T-cell,MTS,5.9 µM
CCO[C@]12CS(=O)(=O)O[C@@]13[C@@H](CN2)O[C@@H](n1cc(C)c(=O)[nH]c1=O)[C@@H]3OC(C)=O,ROD,MT-4,-,>250 µM
C=CCNC(=O)CSc1cnc(Nc2ccc(C#N)cc2)nc1Oc1c(C)cc(C#N)cc1C,ROD,MT-4,MTT,>27.8 µM
COc1c(Cl)cc(C(=CCN[C@H]2CC[C@@]3(C)[C@@H](CC[C@@H]4[C@@H]3CC[C@]3(C)[C@@H]([C@H](C)CCCC(C)C)CC[C@@H]43)C2)c2cc(Cl)c(OC)c(C(=O)O)c2)cc1C(=O)O,ROD,MT-4,cytopathic effect / MTT,>125 µM
Cc1cn([C@@H]2O[C@@H]3CN[C@H]4CS(=O)(=O)O[C@]43[C@H]2O[Si](C)(C)C(C)(C)C)c(=O)[nH]c1=O,ROD,MT-4,-,>125 µM
Nc1ncc2ncn(C[C@@H](CF)OCP(=O)(O)O)c2n1,LAV-2,MT-4,cytopathic effect,>300 µM
Cc1cc(C#N)cc(C)c1Oc1nc(Nc2ccc(C#N)cc2)ncc1SCC(=O)NCCN1CCN(C(=O)OC(C)(C)C)CC1,ROD,MT-4,MTT,>21.5 µM
Nc1nc(N)c2ncn([C@H]3C[C@@H](OCP(=O)(O)O)CO3)c2n1,ROD,MT-4,MTT / absorbance,8.15 µM
Nc1ncnc2c1ncn2C[C@@H](CO)OCP(=O)(O)O,LAV-2,MT-4,cytopathic effect,>13 µM
COc1c(Cl)cc(C(=CCN[C@@H]2CC[C@@]3(C)[C@@H](CC[C@@H]4[C@@H]3CC[C@]3(C)[C@@H]([C@H](C)CCCC(C)C)CC[C@@H]43)C2)c2cc(Cl)c(OC)c(C(=O)O)c2)cc1C(=O)O,ROD,MT-4,cytopathic effect / MTT,>87 µM
CCCOC(=O)[C@H](Cc1ccccc1)NP(=O)(CO[C@H]1CO[C@@H](n2cc(F)c(=O)[nH]c2=O)C1)N[C@@H](Cc1ccccc1)C(=O)OCCC,ROD,MT-4,MTT / absorbance,>64 µM
Nc1nc2c(ncn2C[C@H](CF)OCP(=O)(O)O)c(=O)[nH]1,LAV-2,MT-4,cytopathic effect,5.7 µM
CCCCCCCCCCCCCCCC(=O)Oc1ccc(OP(=O)(OCc2ccc(OC(=O)CCCC)cc2)OP(=O)(O)OP(=O)(O)OC[C@@H]2C=C[C@H](n3cc(C)c(=O)[nH]c3=O)O2)cc1,ROD,CEM,syncytia / visual reading,0.27 µM
Cc1cc(C#N)cc(C)c1Oc1nc(Nc2ccc(C#N)cc2)ncc1SCC(=O)NCC1CC1,ROD,MT-4,MTT,20.7 µM
Cc1cn([C@@H]2O[C@@H]3CN[C@@]4(OCC(C)(C)C)CS(=O)(=O)O[C@@]34[C@H]2O[Si](C)(C)C(C)(C)C)c(=O)[nH]c1=O,ROD,CEM,-,<10 µM
OCC(CO)OCc1cc(I)c(F)cc1F,-,CEM,cytopathic effect / MTT,>500 µg/mL
Nc1ncnc2c1ncn2C[C@H](CO)OCP(=O)(O)O,LAV-2,MT-4,cytopathic effect,>330 µM
Brc1ccc(-c2csc(N/N=C/c3ccccn3)n2)cc1,ROD,MT-4,MTT,>2.71 µM
CCO[C@]12CS(=O)(=O)O[C@@]13C(CN2)O[C@@H](n1cc(C)c(=O)n(C)c1=O)[C@@H]3O[Si](C)(C)C(C)(C)C,ROD,CEM,-,>50 µM
Cc1ccc(C)c(CS(=O)(=O)c2cccc[n+]2[O-])c1,EHO,CEM,syncytia,14 µg/mL
Cc1cn([C@H]2C[C@@H](OCP(=O)(O)O)CO2)c(=O)[nH]c1=O,ROD,MT-4,MTT / absorbance,23.55 µM
Cc1cccc(Nc2nn3c(=O)c4ccccc4nc3s2)c1,ROD,MT-4,cytopathic effect / MTT,32 µg/mL
CCCCCO[C@]12CS(=O)(=O)O[C@@]13[C@@H](CN2)O[C@@H](n1cc(C)c(=O)[nH]c1=O)[C@@H]3O[Si](C)(C)C(C)(C)C,ROD,CEM,-,>5 µM
Cc1cc(C#N)cc(C)c1Oc1nc(Nc2ccc(C#N)cc2)ncc1SCC(=O)N1CC[C@H](NC(=O)OC(C)(C)C)C1,ROD,MT-4,MTT,>24.7 µM
OCCOCc1cc(I)c(F)cc1F,-,CEM,cytopathic effect / MTT,>500 µg/mL
Nc1nc2c(ncn2C[C@@H](CF)OCP(=O)(O)O)c(=O)[nH]1,LAV-2,MT-4,cytopathic effect,3.8 µM
COc1ccc(C(=O)Nc2sc3c(c2C(=O)Nc2ccccn2)CCCCC3)cc1OC,ROD,MT-4,MTT / absorbance,>6.24 µM
CC(C)CS[C@@H]1C=C[C@H](n2cnc3c(N)ncnc32)C1,ROD,CEM,cytopathic effect / syncytia / trypan blue,>10 µg/mL
Nc1ncc2ncn(C[C@H](CF)OCP(=O)(O)O)c2n1,LAV-2,MT-4,cytopathic effect,>300 µM
Cc1cn([C@@H]2O[C@@H]3CN[C@@]4(OCC(C)C)CS(=O)(=O)O[C@@]34[C@H]2O)c(=O)[nH]c1=O,ROD,MT-4,-,>250 µM
OCCOCc1ccc(F)cc1F,-,CEM,cytopathic effect / MTT,>500 µg/mL
Cc1cc(S(N)(=O)=O)ccc1NC(=O)COc1ccc(Cl)cc1C(=O)c1cccc(C#N)c1,-,MT-4,cytopathic effect / propidium iodide,1–3 µM
CC(C)CCC[C@@H](C)[C@H]1CC[C@H]2[C@@H]3CC[C@H]4C[C@H](NC(=O)C=C(c5cc(Cl)c(O)c(C(=O)O)c5)c5cc(Cl)c(O)c(C(=O)O)c5)CC[C@]4(C)[C@H]3CC[C@]12C,ROD,MT-4,cytopathic effect / MTT,5.1 µM
C/C(=N\Nc1nc(-c2ccc(C#N)cc2)cs1)c1ccc(Cl)c(Cl)c1,ROD,MT-4,MTT,>17.1 µM
Nc1nc(N)c2ncn(C[C@@H](CO)OCP(=O)(O)O)c2n1,LAV-2,MT-4,cytopathic effect,≥62 µM
O=c1c2ccccc2nc2scnn12,ROD,MT-4,cytopathic effect / MTT,63.7 µg/mL

For reference, 7 entries again:

smiles | strain or isolate | cells | method | result
Nc1nc(N)c2ncn(C[C@@H](CO)OCP(=O)(O)O)c2n1 | LAV-2 | MT-4 | cytopathic effect | ≥62 µM
COc1c(Cl)cc(C(=CCN[C@H]2CC[C@@]3(C)[C@@H](CC[C@@H]4[C@@H]3CC[C@]3(C)[C@@H]([C@H](C)CCCC(C)C)CC[C@@H]43)C2)c2cc(Cl)c(OC)c(C(=O)O)c2)cc1C(=O)O | ROD | MT-4 | cytopathic effect / MTT | >125 µM
CC(C)c1ccc(CS(=O)(=O)c2cccc[n+]2[O-])cc1 | ROD | MAGI | β-galactosidase | 12 µg/mL
OCCOCc1cc(I)c(F)cc1F | - | CEM | cytopathic effect / MTT | >500 µg/mL
Cc1cc(C#N)cc(C)c1Oc1nc(Nc2ccc(C#N)cc2)ncc1SCC(=O)NCC1CC1 | ROD | MT-4 | MTT | 20.7 µM
C#CCNC(=O)CSc1cnc(Nc2ccc(C#N)cc2)nc1Oc1c(C)cc(C#N)cc1C | ROD | MT-4 | MTT | >23.5 µM
CCO[C@]12CS(=O)(=O)O[C@@]13[C@@H](CN2)O[C@@H](Sc1ccccc1)[C@@H]3O[Si](C)(C)C(C)(C)C | ROD | CEM | - | >50 µM